The values are deposited in ChEMBL (CHEMBL3988442, “University of Dundee, Small-Polar-MMV Screening Library” (2021)).

The filed quantity is “Percent Effect” (%).
The controls that fix the scale are not given in the record; negative values are as filed.
This is part of a subset picked to be rich in strong results.

Mtb cholesterol medium: 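Whole-cell growth test on Mycobacterium tuberculosis, read after 4 days in a medium based on cholesterol and the lipid DPPC; the read-out is not stated. Compounds at 500 µM. The record gives no direction; compounds that gave an IC50 in retests scored well above the rest, so higher reads as more growth inhibition. About 18,000 compounds were tested under these conditions; 5% (about 900) showed 50% or more at least once.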
Mtb glucose medium: 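Phenotypic screen: M. tuberculosis growth, glucose 7H9 medium, 3 days; the read-out is not stated. Compounds at 500 µM. Higher reads as more growth inhibition (inferred: compounds with an IC50 in retests scored well above the rest). Size under these conditions: about 18,000 compounds, about 1,400 of them at 50% or above in at least one test.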

CC(=O)NCCCSCc1csc(NC(C)=O)n1 read Mtb glucose medium: -0.4497%.
CCC(=O)OC(C)C(=O)Nc1ccc2c(c1)OCCO2 (stereo not drawn) read Mtb cholesterol medium: 14.38%; Mtb glucose medium: 17.67%.
CS(=O)(=O)NCCOc1nc(-c2ccccc2Cl)no1 read Mtb cholesterol medium: 4.757%.
CC1CN(C(=O)CCc2ccccc2)CCO1 (stereo not drawn) read Mtb glucose medium: 38.39%.
COCc1ccccc1C(=O)N1CCCC(O)C1 (stereo not drawn) read Mtb glucose medium: -13.2%.
NC(=O)C1CCCN(CCCc2ccccc2)C1 (stereo not drawn) read Mtb glucose medium: 19.56%.
c1cn(CCNC2CCSCC2)cn1 read Mtb glucose medium: 20.27%.
CC(=O)Nc1ccc(N2C(=O)C=CC2=O)cc1 read Mtb glucose medium: 83.61%.
CC(C)CC(C)(CN)NS(=O)(=O)c1cccnc1 (stereo not drawn) read Mtb cholesterol medium: 12.61%.
NCc1nnc2n1CC(C(F)(F)F)CC2 (stereo not drawn) read Mtb glucose medium: 6.091%.
CN(Cc1nnc[nH]1)C(=O)Cc1cccc(Br)c1 read Mtb cholesterol medium: -11.86%.
OCC(O)CSCCc1ccccc1Cl (stereo not drawn) read Mtb cholesterol medium: 54.41%; Mtb glucose medium: 57.09%.
Cc1ccccc1-n1nnnc1SC(C)C(=O)N(C)C (stereo not drawn) read Mtb cholesterol medium: 22.39%; Mtb glucose medium: 40.68%.
O=C1CCC(NS(=O)(=O)Cc2c(Cl)cccc2Cl)CN1 (stereo not drawn) read Mtb glucose medium: 20.34%.
NC(=O)CC1C(=O)NCCN1CCCc1ccccc1 (stereo not drawn) read Mtb glucose medium: 17.25%.
Cc1nn(C(C)C)c(C)c1NC(=O)N1CCC[C@H]1CO read Mtb glucose medium: 25.49%.
CCNC(=O)C1CN(c2ccc(S(C)(=O)=O)cc2)C1 read Mtb glucose medium: 1.725%.
COc1cccc(CNCCn2cccn2)c1OC read Mtb glucose medium: 66.05%.
CC(C)c1cc(C(=O)N[C@@H]2CCOC[C@H]2O)no1 read Mtb cholesterol medium: 15.76%.
CCc1cccc2c(C(C)=O)cn(CC(N)=O)c12 read Mtb glucose medium: 19.78%.
CC(C)(C)c1ccc2c(c1)C(N)C(=O)N2 (stereo not drawn) read Mtb cholesterol medium: 72.52%; Mtb glucose medium: 104%.
Cc1ccc2c(c1)nc(CCN)n2C read Mtb cholesterol medium: 15.18%; Mtb glucose medium: 42.38%.
CC1CN=C(N2CCN(CCc3ccccn3)CC2)S1 (stereo not drawn) read Mtb glucose medium: 18%.
Cc1cccc(OCCNC(=O)CN(C)CC(N)=O)c1 read Mtb cholesterol medium: 1.316%; Mtb glucose medium: 20.56%.
CCN1CCN(Cc2nc(C3CCOC3)no2)CC1 (stereo not drawn) read Mtb glucose medium: -3.829%.
CC(C)Oc1cc(CNC2CC2)ccn1 read Mtb glucose medium: 18.55%.
CC(C)c1nsc(NCC(O)CN2CCOCC2)n1 (stereo not drawn) read Mtb glucose medium: 0.4061%.
COc1cc(CNCCO)c(Cl)cc1OCC(N)=O read Mtb glucose medium: -2.537%.
NC1CCS(=O)(=O)c2ccc(Br)cc21 (stereo not drawn) read Mtb cholesterol medium: 66.94%; Mtb glucose medium: 58.98%.
CCN1CCCN(C(=O)Nc2ccc(C)cc2)CC1 read Mtb glucose medium: 12.83%.
CSCC1CCCN1C(=O)c1ccc(CN)cc1 (stereo not drawn) read Mtb glucose medium: 18.34%.
Cn1cc(NC(=O)CC(C)(C)C)ccc1=O read Mtb glucose medium: -6.121%.
CN(C)C(=O)CCCn1nnc(-c2ccsc2)n1 read Mtb cholesterol medium: 76.36%; Mtb glucose medium: 70.05%.
COC(=O)CNc1cc(Cl)ccc1C(=O)N1CCCC1 read Mtb cholesterol medium: 4.256%.

Repeated from the top, 2 entries:

* CC(=O)NCCCSCc1csc(NC(C)=O)n1 : Mtb glucose medium: -0.4497%
* CCC(=O)OC(C)C(=O)Nc1ccc2c(c1)OCCO2 (stereo not drawn) : Mtb cholesterol medium: 14.38%; Mtb glucose medium: 17.67%